Measured values from several laboratories, pooled; numbers as filed in NIAID ChemDB.

All rows: tests in culture; agent: Hepatitis B virus; cell line: HepAD38; measure: EC50

Neighbouring rows are from separate reports.

SMILES,strain or isolate,method,value
Nc1nc2c(ncn2C[C@]2(CO)C[C@H]2CO)c(=O)[nH]1,,,>20 µg/mL
CCCC(=O)Nc1nc(N)nc2c1ncn2[C@H]1CO[C@@H](COP(=O)(N[C@@H](C)C(=O)OCC)Oc2ccccc2)O1,,PCR,3.3 µM
CCOC(=O)C1=C(CN2CCOCC2)NC(C2=NC=CC2)=NC1c1ccc(F)cc1Br,,hybridisation,0.06224 µM
C[C@@H](NC(=O)C(=O)N1CC[C@]2(COc3c(c(Cl)n(C)c3C(=O)Nc3ccc(F)c(Cl)c3)S(=O)(=O)N2)C1)C(F)(F)F,Genotype D,PCR,<0.5 µM
Nc1ccn([C@@H]2CS[C@H](CO)O2)c(=O)n1,,,0.03 µM
CN1[C@H](C(=O)Nc2ccc(F)c(Cl)c2)C[C@H](c2ncc(-c3cn(C)cn3)s2)NS1(=O)=O,Genotype D,fluorescence,0.022 µM
Cc1c2c(c(C(=O)Nc3ccc(F)c(C(F)F)c3)n1C)CCC(C)(C)NC2=O,,PCR,<0.05 µM
Cc1cc(NC(=O)c2c3c(cn2C)S(=O)(=O)NC2CN(C(=O)C(=O)N[C@H](C)C(F)(F)F)CC2(C)CO3)ccc1F,,PCR,<0.5 µM
COC(=O)CNS(=O)(=O)c1ccc2c(C(=O)Nc3ccc(F)c(Cl)c3)n(C)nc2c1,,PCR,>1000 µM
Nc1nc2c(ncn2COC(CO)CO)c(=O)[nH]1,,,>50 µg/mL
Cc1ccc(F)c(NC(=O)c2c3c(c(C)n2C)C(=O)NC(C)(C)CC3)c1,,PCR,<0.05 µM
Nc1nc2c(ncn2CCC(CO)CO)c(=O)[nH]1,,,46 µg/mL
Cc1c2c(c(C(=O)Nc3ccc(F)c(F)c3)n1C)CCC(C)(C)NC2=O,,PCR,<0.05 µM
C[C@@H](NC(=O)C(=O)N1C[C@H]2COc3c(c(Cl)n(C)c3C(=O)Nc3ccc(F)c(C(F)(F)F)c3)S(=O)(=O)N[C@H]2C1)C(F)(F)F,,PCR,<0.5 µM
CCOC(=O)c1c(CSc2ccccc2)n(C)c2cc(Br)c(O)c(CN(C)C)c12,,ELISA,4.321 µM
C[C@@H](NC(=O)C(=O)N1CCC2(CC1)COc1c(cn(C)c1C(=O)Nc1ccc(F)c(Cl)c1)S(=O)(=O)N2)C(F)(F)F,Genotype D,PCR,<0.5 µM
CNC(=O)C(=O)N1CC2COc3c(cn(C)c3C(=O)Nc3ccc(F)c(C)c3)S(=O)(=O)NC2C1,,PCR,<0.5 µM
CCCCCCCCCC(=O)Nc1nc(N)nc2c1ncn2[C@H]1CO[C@@H](COP(=O)(N[C@@H](C)C(=O)OCC)Oc2ccccc2)O1,,PCR,0.43 µM
C[C@@H](NC(=O)C(=O)N1CC[C@@]2(COc3c(c(Cl)n(C)c3C(=O)Nc3ccc(F)c(C(F)F)c3)S(=O)(=O)N2)C1)C(F)(F)F,Genotype D,PCR,<0.5 µM
CCOC(=O)[C@H](C)NP(=O)(OC[C@@H]1OC[C@H](n2cnc3c(NC(C)=O)nc(N)nc32)O1)Oc1ccccc1,,PCR,9.3 µM
Nc1nc2c(ncn2[C@@H]2C[C@H](CO)[C@H]2CO)c(=O)[nH]1,,,0.5 µg/mL
Cc1cc(NC(=O)c2c3c(cn2C)S(=O)(=O)N[C@H]2CN(C(=O)C(=O)NC4CC4)C[C@H]2CO3)ccc1F,,PCR,<0.5 µM
CCOC(=O)[C@H](C)NP(=O)(OC[C@@H]1OC[C@H](n2cnc3c(N)nc(N)nc32)O1)Oc1ccccc1,,PCR,0.3 µM
Cc1cc(NC(=O)c2c3c(cn2C)S(=O)(=O)N[C@H]2CN(C(=O)C(=O)NC4CC(F)(F)C4)C[C@H]2CO3)ccc1F,,PCR,<0.5 µM
C[C@H](NC(=O)C(=O)N1CC[C@]2(COc3c(cn(C)c3C(=O)Nc3ccc(F)c(Cl)c3)S(=O)(=O)N2)C1)C(F)(F)F,Genotype D,PCR,<0.5 µM

A second listing of 3 rows from above:

SMILES	strain or isolate	method	value
Nc1nc2c(ncn2COC(CO)CO)c(=O)[nH]1			>50 µg/mL
CCOC(=O)[C@H](C)NP(=O)(OC[C@@H]1OC[C@H](n2cnc3c(NC(C)=O)nc(N)nc32)O1)Oc1ccccc1		PCR	9.3 µM
C[C@@H](NC(=O)C(=O)N1CCC2(CC1)COc1c(cn(C)c1C(=O)Nc1ccc(F)c(Cl)c1)S(=O)(=O)N2)C(F)(F)F	Genotype D	PCR	<0.5 µM

ECn: concentration that inhibits the pathogen or its effect by n%. Blank or dashed fields: not listed here.